Several values for one entry are separate records, joined by “and”; a condition that tells them apart may be missing. Equal entries are not always repeated.
Columns and labels:
SPI-encoded genes = format: cell-based, S. Typhimurium
Experimental: Salmonella was grown for 5 hours at 37°C in LB medium in the presence of 100 μM C26 or 1% (v/v) DMSO as a control. After growth, bacteria were harvested by centrifugation, and total RNA was isolated using the Qiagen RNeasy mini kit according to the manufacturer’s protocol. RNA-seq was performed on a HiSeq2500 with a 2 x 125–base pair paired-end read protocol. The Illumina Casava software was used to demultiplex the sequenced reads providing individual raw fastq sample files. Raw fastq files were prefiltered using the chastity filter to remove reads that contain a “Y” flag. FastQC (https://www.bioinformatics.babraham.ac.uk/projects/fastqc/, version v0.11.4) was used to determine the quality of the resulting fastq files. Subsequently, an adapter trimming/removal step was conducted with Cutadapt (https://pypi.python.org/pypi/cutadapt/, version 1.8.3). […] TopHat2 (https://ccb.jhu.edu/software/tophat/index.shtml, version v2.0.12) was used as aligner to map the remaining quality controlled reads to the Salmonella genome. Read counting to features (e.g., genes or exons) in the genome was performed with HTSeq-count (https://htseq.readthedocs.io/en/master/htseqcount.html, version 0.6.0.). Counting was performed using “union” mode on the feature “gene.” The stranded option was also set to “–stranded=no” to indicate to count features on both strands. Furthermore, the -r parameter from HTSeq was set to “pos” as this is the default of the output of TopHat’s “accepted_hits.bam” mapping file. For differential expression analysis, the raw read count table resulting from HTSeq counting is used and fed into the R package DESeq2 (version 1.10.1). Graphs were also produced in the R language (R version 3.2.1) mainly using the R package ggplot2 (version 2.2.0). Reports were produced using the R package rmarkdown (version 1.3).

S. Typhimurium = experiment: Subcellular quantification of uptake; format: cell-based; conditions: 100 ng/ml, 10 min
[1] = C26 100 μM, single biological replicates

| SMILES | Log10 (Number of reads) STM1329 (SPI-encoded genes; C26 100 μM (Fig 2D)) | Log10 (Number of reads) STM4315 (SPI-encoded genes; C26 100 μM (Fig 2D)) | Log10 (Number of reads) hilA (SPI-encoded genes; C26 100 μM (Fig 2D)) | Log10 (Number of reads) invF (SPI-encoded genes; C26 100 μM (Fig 2D)) | Log10 (Number of reads) invG (SPI-encoded genes; C26 100 μM (Fig 2D)) | RNA-seq read count STM1329 (SPI-encoded genes; [1]) | RNA-seq read count STM4315 (RtsA) (SPI-encoded genes; [1]) | RNA-seq read count hilA (SPI-encoded genes; [1]) | RNA-seq read count invG (SPI-encoded genes; [1]) | uptake in the cytosol, fold difference to C26 (S. Typhimurium; cytosol) [fold] | overall uptake, fold higher than C26 (S. Typhimurium; whole cell) [fold] |
| --- | --- | --- | --- | --- | --- | --- | --- | --- | --- | --- | --- |
| CN(CC(=O)NCc1ccc2c(c1)OCO2)Cc1ccc(Br)s1 [C26, N-(benzo[d][1,3]dioxol-5-ylmethyl)-2-{[(5-bromothiophen-2-yl)methyl](methyl)amino}acetamide] | -0.4771 | 1.666 | 1.914 | 2.286 | 2.322 | 0 (2×) and 1 | 51 and 31 and 57 | 92 and 67 and 87 | 178 and 158 and 294 | – | – |
| CN(CC(=O)NCc1ccc2c(c1)OC(F)(F)O2)Cc1ccc(Br)s1 [SW-C182, 2-{[(5-Bromothiophen-2-yl)methyl](methyl)amino}-N-[(2,2-difluorobenzo[d][1,3]dioxol-5-yl)methyl]acetamide] | – | – | – | – | – | – | – | – | – | 5.3 | 10 |

Source: paper PMC11988454, “Discovery of synthetic small molecules targeting the central regulator of Salmonella pathogenicity” (Science Advances, 2025)
